Results on one compound are retold here after paper PMC8571282 (Nature Communications, 2021).

Experiment [1] relates to SARS-CoV-2 (WA1/2020 and VOC α, β, γ). Kind of experiment: Antiviral potency in SARS-CoV-2-infected Vero E6 cells (range over isolates). The experiment is classed as cell-based. To be noted: VeroE6.
Another experiment has as its system SARS-CoV-2 WA1/2020. Kind of experiment: Therapeutic efficacy in ferrets, WA1/2020. The experiment is classed as in vivo, ferret (Mustela putorius furo). The settings on record: ferret, given as 10 mg/kg b.i.d.

In the case of `CC(C)C(=O)OCC1OC(C#N)(c2ccc3c(N)ncnn23)C(OC(=O)C(C)C)C1OC(=O)C(C)C` (centres unmarked), the selectivity index (SI = CC50/EC50) in experiment [1] is over 137. In addition, the “minimal daily oral dose providing full therapeutic benefit” value with SARS-CoV-2 WA1/2020 amounted to 20 mg/kg.
